System: Staphylococcus aureus strain SAU1018
Experiment: Mouse peritonitis infection model

## contezolid acefosamil [Product form 3]
Administered orally, Staphylococcus aureus
  ED50: about 8 mg/kg
Intravenous injection of saline solution, S. aureus SAU1018
  ED50 (effective dose for 50% animal survival): 10 mg/kg

Reference: patent US12180242B2, “Pharmaceutical crystal of contezolid acefosamil, preparation method therefor, and uses thereof” (dated 2024)
